How the values were obtained:
Assay in all cases: radioligand binding
[1] = molecular target: heteromeric α9χY190Tα10χ receptor (rat | mouse)
[2] = molecular target: heteromeric α9χα10χ receptor (wild-type chimeric subunits coexpressed) (rat | mouse)
[3] = molecular target: heteromeric α9χα10χY190T receptor (rat | mouse)
[4] = molecular target: homomeric α10χ receptor (chimeric subunit: extracellular domain of rat α10 fused to the C-terminal d (rat | mouse))
[5] = molecular target: homomeric α10χW55T receptor (rat | mouse)

[^3H]-α-bungarotoxin (from UniProt P60615 22-95) (ligand)
fold higher specific binding than homomeric α10χ [1]: 4 fold | fold lower specific binding than wild-type α9χα10χ [1]: 6 fold | fold higher specific binding than α9χ expressed alone [2]: 6 fold | fold lower specific binding than wild-type α9χα10χ [3]: 4 fold | specific binding [4]: 1.4 fmol/mg | specific binding [5]: 2.5 fmol/mg

Source: PMC5325082 (Molecular Pharmacology, 2017)
